Test results as given in ChEMBL document CHEMBL3407396, “Discovery of non-oxime reactivators using an in silico pharmacophore model of reactivators for DFP-inhibited acetylcholinesterase” (2015).
The source made the active and inactive calls. The calls are words filed in the database; no cut-off is given here.

System: Cavia porcellus
Experiment: Efficacy against diisopropylfluorophosphate-induced neuropathology in guinea pigs assessed as seizure strength treated with 0.026 mg/kg, ip pyridostigmine bromide after 20 mins 8 mg/kg DFP followed by 2 mg/kg atropine methyl bromide treated before 13 to 16 mg/kg of compound auto-injection over …

NC(=O)CCNCCSC(=O)c1ccccc1
Activity: inactive

O=[N+]([O-])c1ccc(OS(=O)(=O)c2ccccc2)c(Cl)c1
Activity: Active

O=[N+]([O-])c1ccc(NS(=O)(=O)c2ccc(Cl)cc2)cc1
Activity: inactive

C[n+]1ccccc1C=NO
Activity: inactive

CS(=O)(=O)SCCOC(=O)Nc1ccccc1
Activity: Active
